Measured values from several laboratories, pooled; numbers as filed in NIAID ChemDB.

Shared fields: growth or infection tests; agent: HIV-1; read-out: EC50

Conditions beyond the fields shown may differ between rows. Blank or dashed fields: not listed here. ECn is the concentration giving n% inhibition of infection, replication or growth.

| compound | cells | changes | setting | method | strain or isolate | result |
|---|---|---|---|---|---|---|
| NC(=O)c1cc2c(-c3ccc(Oc4ccccc4)cc3)cncc2s1 | U1 | - | - | p24 / ELISA | - | 0.077 µM |
| CCn1nc(Cc2ccccc2F)cc1C1CCN(C[C@H]2CN([C@@H](C(=O)O)C(C)C)C[C@@H]2c2cccc(F)c2)CC1 | HeLa | - | - | β-galactosidase | BaL | <0.011 µM |
| Cc1cc(C#N)cc(C(=O)c2cc(Cl)ccc2OCC(=O)Nc2ncc(S(N)(=O)=O)cc2C)c1 | HeLa + HeLa-MAGI | - | - | β-galactosidase | HXB2 | 0.018 µM |
| Cc1cc(Cl)cc(S(=O)(=O)c2cccc(N)c2C#N)c1 | HeLa + HELA CD4+ | RT-P236L | - | β-galactosidase | - | 0.011 µM |
| Nc1ccn([C@H]2CC[C@@H](CO)O2)c(=O)n1 | HT4 + HT4 LacZ-1 | RT-D67N K70R T215F K219Q | - | - | RTMC (RT D67N K70R T215F K219Q) | 0.65 µM |
| CCn1nc(Cc2ccc(OC)c(C#N)c2)cc1C1CCN(C[C@H]2CN([C@@H](C(=O)O)C(C)C)C[C@@H]2c2cccc(F)c2)CC1 | HeLa | - | 50% human serum | β-galactosidase | BaL | <0.3 µM |
| Nc1ccn([C@H]2CC[C@@H](CO)O2)c(=O)n1 | MOLT-4/8 + MOLT-4 | - | - | p24 | IIIRF | 0.17 µM |
| Nc1nc(=O)n([C@@H]2CS[C@H](CO)O2)cc1F | HT4 + HT4 LacZ-1 | RT-L74V | - | - | 74V (RT-L74V) | 0.12 µM |
| Cc1cn([C@H]2C[C@H](N=[N+]=[N-])[C@@H](CO)O2)c(=O)[nH]c1=O | MAC | - | - | cytopathic effect / XTT | BaL | 0.03 µM |
| Cc1cc(S(N)(=O)=O)ccc1NC(=O)COc1ccc(Cl)cc1C(=O)c1cc(Cl)cc(C#N)c1 | HeLa + HeLa-MAGI | - | - | β-galactosidase | HXB2 | 0.0005 µM |
| CCn1nc(Cc2ccc(OC)c(C#N)c2)cc1C1CCN(C[C@H]2CN([C@@H](C(=O)O)C(C)(C)C)C[C@@H]2c2cccc(F)c2)CC1 | HeLa | - | 50% human serum | β-galactosidase | BaL | <0.033 µM |
| Cc1noc(C2CCCN(c3cncc4sc(C(N)=O)c(N)c34)C2)n1 | U1 | - | - | p24 / ELISA | - | 1.087 µM |
| Cc1cn([C@H]2C=C[C@@H](CO)O2)c(=O)[nH]c1=O | Primary T lymphocytes | 4xAZT | - | p24 / ELISA | - | 27.8 µM |
| O=C(O)/C=C/c1ccc[c]([Sb](=[O])([OH])[OH])c1 | MAGI | - | - | β-galactosidase | NL4-3 | 0.64 µM |
| Cc1cc(S(N)(=O)=O)ccc1NC(=O)COc1ccc(Cl)cc1C(=O)c1cc(Cl)cc(C#N)c1 | MAGI | RT-G190A | - | β-galactosidase | NNRTI-resistant (RT G190A) | 0.0009 µM |
| Cc1cn([C@H]2C[C@H](N=[N+]=[N-])[C@@H](CO)O2)c(=O)[nH]c1=O | MOLT-4 / MOLT-4 (HIV-1) + MOLT-4 | - | - | syncytia | 0650 | >50 µg/mL |
| CCc1c(Sc2ccccn2)n(COCc2ccccc2)c(=O)[nH]c1=O | CEM + CEM-SS | RT-Y181C | - | cytopathic effect / XTT | IIIB | 3.5 µM |
| CCc1c(Sc2ccccn2)n(COCc2ccccc2)c(=O)[nH]c1=O | AA5 | - | - | cytopathic effect / XTT | IIIB | 0.038 µM |
| CC(=O)N1CCN(c2cncc3sc(C(N)=O)c(N)c23)CC1 | U1 | - | - | p24 / ELISA | - | 0.219 µM |
| Nc1ccn([C@@H]2CO[C@H](CO)S2)c(=O)n1 | C8166 | - | - | cytopathic effect / MTT | RF | 28 µM |
| COc1cc(C(F)(F)F)cc(S(=O)(=O)c2cccc(N)c2C#N)c1 | HeLa + HELA CD4+ | RT-E138K | - | β-galactosidase | - | 0.029 µM |
| CCN(CC)C(=O)OCC1CN(C(=O)c2cc(OC)c(OC)c(OC)c2)CCN1C(=O)c1cc(OC)c(OC)c(OC)c1 | Macrophage + Monocytes/macrophages | - | - | RT activity | BaL | 10 µM |
| NC(=O)c1sc2cncc(-c3ccc4c(c3)CCO4)c2c1N | U1 | - | - | p24 / ELISA | - | 0.091 µM |
| Cc1cn([C@H]2C[C@H](N=[N+]=[N-])[C@@H](CO)O2)c(=O)[nH]c1=O | SupT1 + Sup-T1 | - | - | syncytia | DV | 0.04 µM |
| c1ccc2c(c1)sc1nccn12 | Macrophage | - | - | cytopathic effect / XTT | IIIB | 1.8 µM |
| COc1cc(/C=C/c2ccc3c(C(=O)O)cc(C(=O)O)c(O)c3n2)cc(O)c1O | HeLaP4 | - | - | β-galactosidase | - | 1.6 µM |
| CCn1nc(Cc2ccc(O)cc2)cc1C1CCN(C[C@H]2CN([C@@H](C(=O)O)C(C)(C)C)C[C@@H]2c2cccc(F)c2)CC1 | HeLa | - | 50% human serum | β-galactosidase | BaL | <0.011 µM |
| CC(C)(C)NC(=O)[C@@H]1C[C@@H]2CCCC[C@@H]2CN1C[C@@H](O)[C@H](Cc1ccccc1)NC(=O)[C@H](CC(N)=O)NC(=O)c1ccc2ccccc2n1 | Primary CD4 lymphocytes + Lymphocytes | - | - | p24 | IIIB | 0.0043 µM |
| CC(C)=CCOc1cc(NC(=S)c2ccsc2C)ccc1Cl | Primary lymphocytes + Lymphocytes | - | - | - | - | 0.002 µg/mL |
| Cc1cn([C@H]2C[C@H](N=[N+]=[N-])[C@@H](CO)O2)c(=O)[nH]c1=O | AA5 | - | - | cytopathic effect / XTT | IIIB | 0.013 µM |
| C/C=C/C=C/C(O)=C1/C(=O)C2C3/C(=C(O)/C=C/C=C/C)C(=O)[C@@]4(C)C1[C@]1(C)O[C@@]4(O)[C@@]3(C)O[C@]21O | SupT1 | - | pseudotyped | luciferase | - | 53.3 µM |
| Cc1cc(O)cc(S(=O)(=O)c2cccc(N)c2C#N)c1 | HeLa + HELA CD4+ | RT-V108I | - | β-galactosidase | - | 0.12 µM |
| CC(C)[C@@H](C)/C=C/[C@@H](C)[C@H]1CCC2C3=CC(=O)[C@@]4(O)C[C@@H](O)CC[C@]4(C)[C@@]3(O)CC[C@@]21C | SupT1 | - | pseudotyped | luciferase | - | 6.9 µM |
| CC(C)(C)NC(=O)[C@@H]1C[C@@H]2CCCC[C@@H]2CN1C[C@@H](O)[C@H](Cc1ccccc1)NC(=O)[C@H](CC(N)=O)NC(=O)c1ccc2ccccc2n1 | C8166 | - | - | p24 | RF | 0.0007 µM |
| O=C(N[C@H]1c2ccccc2C[C@H]1O)[C@H](Cc1ccccc1)C[C@H](O)CN1C(=O)[C@@H](Cc2cccc(O)c2)C[C@@H]1Cc1ccccc1 | MT-4 + MT4 | - | - | - | - | 0.2 µM |
| COc1ccccc1CN[C@H]1C2CCN(CC2)[C@H]1C(c1ccccc1)c1ccccc1 | Macrophage + Monocytes/macrophages | - | - | RT activity | BaL | ~1 µM |
| O=C(O)c1cn2c3c(c(N4CCN(c5ccccn5)CC4)c(F)cc3c1=O)OCC2CF | MOLT-4/HIV-1(IIIB) + MOLT-4 | - | chronic infection | p24 | IIIB | 0.85 µg/mL |
| C/C=C/C=C/C(O)=C1\C(=O)[C@@]2(C)C3/C(=C(O)/C=C/C=C/C)C(=O)[C@@]4(C)C1[C@]1(C)O[C@@]4(O)[C@@]3(C)O[C@@]12O | SupT1 | - | pseudotyped | luciferase | - | 25.5 µM |
| COc1ccc(-c2cncc3sc(C(N)=O)cc23)cc1 | 293T | - | - | p24 / ELISA | - | 0.115 µM |
| c1cc(CN2CCCNCCNCCCNCC2)ccc1CN1CCCNCCNCCCNCC1 | HeLaP4 | - | - | β-galactosidase | BaL | >1 µM |
| Cc1cc(S(N)(=O)=O)ccc1NC(=O)COc1ccc(Cl)cc1C(=O)c1cc(Br)cc(C(F)(F)F)c1 | HeLa + HeLa-MAGI | - | - | β-galactosidase | HXB2 | 0.03 µM |
| CCCC(=O)O[C@H]1CN2CC[C@H](O)[C@@H]2[C@@H](O)[C@@H]1O | JM | - | - | syncytia | GB8 | 0.89 µM |
| CCCN(C)C(=O)Oc1nsnc1-c1c(Cl)ccc(N)c1Cl | MAGI | RT-V103A | - | MTT | IIIB | 0.043 µM |
| Cc1cc(N2CCS(=O)CC2)ccc1NC(=O)COc1ccc(Cl)cc1C(=O)c1ccc(C#N)cc1 | HeLa + HeLa-MAGI | - | - | β-galactosidase | HXB2 | 0.026 µM |
| Nc1nc(N)c2ncn([C@H]3CO[C@@H](CO)O3)c2n1 | CBMC | - | - | - | IIIB | 0.9 µM |
| Cc1cn([C@@H]2O[C@H](CO[Si](C)(C)C(C)(C)C)C3(OS(=O)(=O)C=C3N)[C@H]2O[Si](C)(C)C(C)(C)C)c(=O)n(C)c1=O | Primary lymphocytes + Lymphocytes | - | - | - | - | 0.058 µg/mL |
| Cc1ccnc2c1NC(=O)c1cccnc1N2C1CC1 | CEM + CEM-SS | RT-D67N K70R L100I T215Y K219Q | - | cytopathic effect / XTT | 4XAZT+L100I (RT D67N K70R L100I T215Y K219Q) | 0.03 µM |
| Nc1ncnc2c1ncn2CCOCP(=O)(O)O | Primary lymphocytes + Lymphocytes | - | - | - | - | 2.5 µM |
| Cc1cc(S(N)(=O)=O)ccc1NC(=O)COc1ccc(Cl)cc1C(=O)c1cc(Cl)cc(Br)c1 | HeLa + HeLa-MAGI | - | - | β-galactosidase | HXB2 | 0.0022 µM |
| CN(C)c1ccc(-c2cncc3sc(C(N)=O)c(N)c23)cc1 | U1 | - | - | p24 / ELISA | - | 0.038 µM |
| Cc1cn([C@H]2C[C@H](N=[N+]=[N-])[C@@H](CO)O2)c(=O)[nH]c1=O | Primary lymphocytes + Lymphocytes | - | - | - | - | 0.2 µM |
| CCn1nc(Cc2cc(F)cc(F)c2)cc1C1CCN(C[C@H]2CN([C@@H](C(=O)O)C(C)C)C[C@@H]2c2cccc(F)c2)CC1 | HeLa | - | - | β-galactosidase | BaL | <0.011 µM |
| Nc1nc(=O)n([C@@H]2CS[C@H](CO)O2)cc1F | Primary T lymphocytes | M184V | - | p24 / ELISA | - | 10.1 µM |
| CC(C)C(C)/C=C/[C@@H](C)[C@H]1CCC2C3C[C@@H](O)[C@@]4(O)C[C@@H](O)CC[C@]4(C)C3CC[C@@]21C | SupT1 | - | pseudotyped | luciferase | - | 9.3 µM |
| [Se] | U1 | - | - | RT activity | LAV | >0.1 µg/mL |
| CC(C)(C)C(=O)SCCOP(=O)(OCCSC(=O)C(C)(C)C)OC[C@H]1O[C@@H](n2ccc(N)nc2=O)CS1 | MOLT-4/8 + MOLT-4 | - | - | p24 | IIIRF | 0.22 µM |
| Cc1cn([C@H]2C[C@H](N=[N+]=[N-])[C@@H](CO)O2)c(=O)[nH]c1=O | U1(HIV-1 (LAV)) + U1 | - | - | plaque count / syncytia | LAV | >1 µM |
| CC(C)[C@@H](C)/C=C/[C@@H](C)[C@H]1CCC2=C3[C@@H](O)C4OC45C[C@@H](OC(=O)[C@@H](N)[C@@H](OS(=O)(=O)O)C(C)C)CC[C@]5(C)[C@H]3CC[C@@]21C(=O)O | SupT1 | - | pseudotyped | luciferase | - | 22.3 µM |
| CC(C)(O)c1cccc(CN2C(=O)N(Cc3cccc(C(C)(C)O)c3)[C@H](Cc3ccccc3)[C@H](O)[C@@H](O)[C@H]2Cc2ccccc2)c1 | MT-2/MT-4 + MT-2 | - | - | p24 | HXB2 | <0.0222 µM |
| Cc1cn([C@H]2C[C@H](N=[N+]=[N-])[C@@H](COP(=O)(OCCSC(=O)C(C)(C)C)OCCSC(=O)C(C)(C)C)O2)c(=O)[nH]c1=O | MOLT-4/8 + MOLT-4 | - | - | p24 | IIIRF | 0.6 µM |
| CC(C)[C@@H](C)/C=C/[C@@H](C)[C@H]1CCC2C3=CC(=O)[C@@]4(O)C[C@@H](O)CC[C@]4(C)C3CC[C@@]21C | SupT1 | - | pseudotyped | luciferase | - | 12.4 µM |
| O=c1ccn([C@@H]2O[C@H](CO)C3(CO3)[C@H]2O)c(=O)[nH]1 | A301 + A3.01 | - | - | RT activity | - | 22 µM |
| C1CNCCNCCCN[C@H]([C@@H]2CNCCCNCCNCCCN2)CNC1 | CD4+HELA + HeLa | - | - | plaque count / antigen | IIIB | 0.43 µM |
| Cc1cc(Br)cc(S(=O)(=O)c2cccc(N)c2C#N)c1 | HeLa + HELA CD4+ | RT-K103N | - | β-galactosidase | - | 1.1 µM |
| Cc1cn([C@H]2C[C@H](N=[N+]=[N-])[C@@H](CO)O2)c(=O)[nH]c1=O | CBMC | - | - | - | HXB2 | 0.004 µM |
| Cc1nc2ccccc2n1C1C[C@H]2CC[C@@H](C1)N2CC[C@H](NC(=O)C1CCOCC1)c1ccccc1 | HeLaP4 | - | - | β-galactosidase | NL4-3 | >1 µM |

Repeating the first 7 entries:

NC(=O)c1cc2c(-c3ccc(Oc4ccccc4)cc3)cncc2s1 ; cells: U1 ; method: p24 / ELISA ; result: 0.077 µM
CCn1nc(Cc2ccccc2F)cc1C1CCN(C[C@H]2CN([C@@H](C(=O)O)C(C)C)C[C@@H]2c2cccc(F)c2)CC1 ; cells: HeLa ; method: β-galactosidase ; strain or isolate: BaL ; result: <0.011 µM
Cc1cc(C#N)cc(C(=O)c2cc(Cl)ccc2OCC(=O)Nc2ncc(S(N)(=O)=O)cc2C)c1 ; cells: HeLa + HeLa-MAGI ; method: β-galactosidase ; strain or isolate: HXB2 ; result: 0.018 µM
Cc1cc(Cl)cc(S(=O)(=O)c2cccc(N)c2C#N)c1 ; cells: HeLa + HELA CD4+ ; changes: RT-P236L ; method: β-galactosidase ; result: 0.011 µM
Nc1ccn([C@H]2CC[C@@H](CO)O2)c(=O)n1 ; cells: HT4 + HT4 LacZ-1 ; changes: RT-D67N K70R T215F K219Q ; strain or isolate: RTMC (RT D67N K70R T215F K219Q) ; result: 0.65 µM
CCn1nc(Cc2ccc(OC)c(C#N)c2)cc1C1CCN(C[C@H]2CN([C@@H](C(=O)O)C(C)C)C[C@@H]2c2cccc(F)c2)CC1 ; cells: HeLa ; setting: 50% human serum ; method: β-galactosidase ; strain or isolate: BaL ; result: <0.3 µM
Nc1ccn([C@H]2CC[C@@H](CO)O2)c(=O)n1 ; cells: MOLT-4/8 + MOLT-4 ; method: p24 ; strain or isolate: IIIRF ; result: 0.17 µM